Data published in PMC7808427.

Molecular target: his6-AsiR (UniProt A0A0F6AZV0)
Assay: EMSA
Settings: 10 mM Mg2+; recombinant protein; residues 1-293; protein details: 6xHis; probe letters rebuilt from the primers and the genome

AATGTGTTTTAGCAACTCGGATGTATGCATTGTTCCCATCCAGAATAACCAACTTTATTTTTGTGCGACGTAGCCGCACCCCGTGATGTCGCCGGGAAGGCCCGGTAAAAGAAGCAAAAAGGTCAAATGCATAGCAGCGCTCAGACATTATGGACATTGTGACGTATAACGCAGCCTCCCACTGAGATTCGCCTTACACGTTTACATCAATTTTTACAAATGCCTAAGATTTTTCCTAATTCGACGCAACTCTACTCGTCAGCTTCGTGACATACAACGGAGCGGGACGGCGATTTTAGAAAATATGTGATGCAGATCACATATTTTAACGGAATACTTACGATAAAACCATCAGCATGGCTTTTACTTTGTTTAATTAATAACCTAATGTTCACTTTTTCTATTCCACACTGCTGAATAGGGGTACGTCAACACCAAATTCTTTTTTGTTTCTCTCTGTTAAAATAACGCCAGGATAATAGATAACA (double strand) [flhDC promoter fragment]
binding result: binds
